The amount applied is not stated for every result.
B1: YNL255C (protein, UniProt P53849 1-153, looked up)
Zinc finger protein GIS2: MSQKACYVCGKIGHLAEDCDSERLCYNCNKPGHVQTDCTMPRTVEFKQCYNCGETGHVRSECTVQRCFNCNQTGHISRECPEPKKTSRFSKVSCYKCGGPNHMAKDCMKEDGISGLKCYTCGQAGHMSRDCQNDRLCYNCNETGHISKDCPKA
B2: YBR130C (protein, UniProt P38272 1-425, looked up)
SWI5-dependent HO expression …: MSDQDNTQTSSSKLAPHHNIFMANLESSPTKDRNTSSQNASSSRVIESLHDQIDMLTKTNLQLTTQSQNLLSKLELAQSKESKLLENLNLLKNENENLNSIFERKNKKLKELEKDYSELSNRYNEQKEKMDQLSKLAKNSSAIEQSCSEKLQNMEVNYNSLLESQNLYRDHYSDEISKLNEKIGLLELELSNQNLNYGSDTSSNSDIELNLNKFNDSVKDLKSLETEKDSKLSKIITHSLDELNLQSWLNLYQTNENLISTFAEKMDLKDVLKRNDEKISNKGAVVQTLKKNVQTQVESNNADALSSNNAQDMLPIKMVKLRKTPNTNDSSSNGNSSNNKRRSFYTASPLLSSGSIPKSASPVLPGVKRTASVRKPSSSSSKTNVTHNNDPSTSPTISVPPGVTRTVSSTHKKKGNSMVVHGAQS
B3: YOR284W (protein, UniProt Q12134 1-243, looked up)
Protein HUA2: MQQTKFGKMYLDHDSVVEYSEDEIVEADRITLGYKKRLSMIENQMRHLLEDFSLDVQQIEPILADLQKYYDAFLQLLQKRNKSLQCKRSTHQPVPSPMNSQTSTNAKVNLSGKLMKFQLNSVQKFDEENILRILQNKIEFEHYFQIDKGKKQKVLLLAVYQCLNGPTRLHKVLNIEGIIHNNSIRTILGKQVSSSKWTVFLYDVKLVLLAHRQDVPNLETSKMIVRYGDLFPCALYFKDHTAY
B4: YOR042W (protein, UniProt Q08412 1-411, looked up)
Ubiquitin-binding protein CUE5: MEEKEGIKDSSLLEKSNVPESINEDISKTTDVDLNSDGKKDNDTSAKDGTPKVEEKVNKSSGIDEDEVVTPAEDAKEEEEEHPPLPARRKSEEEPSKENPILQELKDAFPNLEEKYIKAVIIASQGVLSPAFNALLFLSDPESGKDIELPTQPVRKNPEAPARRRQTQLEQDELLARQLDEQFNSSHSRRRNRDRATRSMHEQRRRRHNPNEREQHHEDSEEEDSWSQFVEKDLPELTDRAGRSLQDTANKVSNWISDAYRRNFASGNEQNDNQHGHQDQQEWEPEIVDLSQGGKNSRPQQPERRRFNSFGVQVGDDSLESHGITLHNEDGFEDDEDVPPQLPTRTKSGESTGKVVAETTYIDTPDTETKKKWQPLPPEPLDTTPTKVNAVSRNKKNPDEDEFLINSDDEM
B5: YNL287W (protein, UniProt P32074 1-935, looked up)
Coatomer subunit gamma: MSAHTYKKFENSTSGDLPDKMTIYQDCMNTFNESPVNSKRCRLLISRLLRLLAQGETFPQNEATALFFSISKLFQHQNDPLRQAVYLAIKELSGISEDVLMATSSIMKDVQNGSDLIKPDAIRSLTYVLDESTAFSAERLLKSAVVSRHPSISSAALCTSYHLLPISEVTIRRFTNETQEAVLDLKQFPNQHGNSEYYPNSTYISQYHALGLLYQLKKTDKMALLKLVRHFSENNSMKNQLAKVELVKIVNDLIYRDPQLFSQFRPLLSDWLSNKFESVQLETAKLITSFATRNSRLVAPELYAAAISALQSLLTVPRVSSRFAALRILNRISMVSPEKIVVCNPELESLINDSNRNISTYAITTLLKTGTSKNISSLISTITNFIHDVSDDFKIIIIDAVRTLSLNFPQEWKSILNFLIDVLKNSEGGFKFKNSIVEALIDIVSFVPQSKELALENLCDFIEDCEFNEILVRILHLLGKEGPSAPNPSLYVRHIYNRVVLENSIIRSAAVVALSKFALTKNDPTLYESIISLLKRIANDKDDEVRDRATIALEFIDSARNKDDVIAQNLIESKYFYDIPSLESKLSSYISSNTDSFATAFDVNQVRKFTEDEMKAINLKRKQEQIFNQKSETTLDTTPEAESVPEKRADANSFAGPNLDDHQEDLLATKYADELLSIEQIKPFGQLVNSSRAISLTEPEAEFVVRGVKHLFKDNVVLQFNITNTLTDIALDNVSVVCTPEISDEAELEELFTLQVDRLLPSEEAACYVAFKKLDEIVMEGFLNNLTFTTKEINPDTNEPFDGDEGFQDEYEIDSIFLNAGDYVKSSFTGNFSATFDELPCEEVAVFNIQEDLSIQEVVDKIILNSSCLPVESTQFAPSDSNSHTLKLFGKSALTGSKVALQIKMIKSSKGLALKVHGKGEDSLLCSDLVNGLMQ
B6: YNL094W (protein, UniProt P53933 1-587, looked up)
Phosphatidate phosphatase APP1: MNSQGYDESSSSTAATSGPTSGDPRMGKKQRFMNLIRTTKDVYIPNLTSSISQKTMDGIRSTTNSFEGYNDLPMELPHNTTITYFPTYTTTNLVDPDGLSAPRKDFETTVRCAVSYPGNPTSRRNRWLLSLCKQYLRTGTAEADVAPVVPPHLEEDSGDLNDSQSSIESSLSSKSENRYSHMGIQEEDVLNERIQGFLSKKVPNTPVVVDLLPKDKLRGDTASFFGTTDSYGNLLIKAETDFLPSKINITLDTPIEGHADPISETFPANYVSPYGIGLISDIDDTIKHTGVTGDRRSMFRNVFIHDVQSWVIDGVPLWYKTLHDVADVDFFYVSNSPIQTFTLLKQYICANFPPGPIFLKQYSGNFFSTIMTSSANRKIQPIANILKDFPKKKFILVGDSGEHDLEAYTTTALQFPNQILAIYIRCCSNSMSDVPSHDEEVMNEVNNIIELQQRPMQMTKSTVRTRRRPPPPPIPSTQKPSLTEEQTESIRMSRRNKDENNAKRVAPPPLPNRQLPNLDANTYYVPSSQNDYGMYGAFMDKKADEWKRRVMDSIQKLSNQDTTLMFFSDPALSLEDSIRRIREKYSN
B7: YBL039C (protein, UniProt P28274 1-579, looked up)
CTP synthase 1: MKYVVVSGGVISGIGKGVLASSTGMLMKTLGLKVTSIKIDPYMNIDAGTMSPLEHGECFVLDDGGETDLDLGNYERYLGVTLTKDHNITTGKIYSHVIAKERKGDYLGKTVQIVPHLTNAIQDWIERVAKIPVDDTGMEPDVCIIELGGTVGDIESAPFVEALRQFQFKVGKENFALIHVSLVPVIHGEQKTKPTQAAIKGLRSLGLVPDMIACRCSETLDKPTIDKIAMFCHVGPEQVVNVHDVNSTYHVPLLLLEQKMIDYLHARLKLDEISLTEEEKQRGLELLSKWKATTGNFDESMETVKIALVGKYTNLKDSYLSVIKALEHSSMKCRRKLDIKWVEATDLEPEAQESNKTKFHEAWNMVSTADGILIPGGFGVRGTEGMVLAARWARENHIPFLGVCLGLQIATIEFTRSVLGRKDSHSAEFYPDIDEKNHVVVFMPEIDKETMGGSMRLGLRPTFFQNETEWSQIKKLYGDVSEVHERHRHRYEINPKMVDELENNGLIFVGKDDTGKRCEILELKNHPYYIATQYHPEYTSKVLDPSKPFLGLVAASAGILQDVIEGKYDLEAGENKFNF
B8: YJR083C (protein, UniProt P47129 1-309, looked up)
Assembly-complementing factor …: MSEDQRVISQPIELHKLSIVDKHSQGQQQQPHQKQHEVQPESKSPRVTTPLKPKRLAIPISSPQRSTTNQSPVSDHASPISTDQDLIYKLAAKHREINELSFKLEVAQKELKQLELQFKDTLPRNGQQKLGNQNPSEYLSTFTKRIQQTFVDVNNSPNMLKGKKSINDFFSKPNNNVNSNINNTLPNRKPNPPPNRSQRMQNIAPSRSSESTPTSGPPLLPPRNTMKNANTTATAGENTPFLQRILNKFNQMNMEEDEFDDLLEKRKSKKDHYYIKENLGYEYDEVRSEDEDDEEFEPMGDIPVHLFKR
B9: YGL099W (protein, UniProt P53145 1-640, looked up)
Large subunit GTPase 1: MPPKEAPKKWKAPKGPKPTHRKNKNKLELGRAIKYARQKENAIEYLPDGEMRFTTDKHEANWVKLRSVTQESALDEFLSTAALADKDFTADRHSNVKIIRMDSGNDSATSQGFSMTNEQRGNLNAKQRALAKDLIVPRRPEWNEGMSKFQLDRQEKEAFLEWRRKLAHLQESNEDLLLTPFERNIEVWKQLWRVVERSDLVVQIVDARNPLLFRSVDLERYVKESDDRKANLLLVNKADLLTKKQRIAWAKYFISKNISFTFYSALRANQLLEKQKEMGEDYREQDFEEADKEGFDADEKVMEKVKILSIDQLEELFLSKAPNEPLLPPLPGQPPLINIGLVGYPNVGKSSTINSLVGAKKVSVSSTPGKTKHFQTIKLSDSVMLCDCPGLVFPNFAYNKGELVCNGVLPIDQLRDYIGPAGLVAERIPKYYIEAIYGIHIQTKSRDEGGNGDIPTAQELLVAYARARGYMTQGYGSADEPRASRYILKDYVNGKLLYVNPPPHLEDDTPYTREECEEFNKDLYVFDRLPDTRKEQVQNAAKAKGIDIVDLARDLNQLTFSAHTGGDTQKEAKSVTHGGKQAALYNAAEDLDRDFFKMNNVEGRLSTPFHKVQNSSAGKRHNKKNKSKNAKSKVFSIENN
B10: YBL071W-A (protein, UniProt Q3E840 1-82, looked up)
Diphthamide biosynthesis …: MSTYDEIEIEDMTFEPENQMFTYPCPCGDRFQIYLDDMFEGEKVAVCPSCSLMIDVVFDKEDLAEYYEEAGIHPPEPIAAAA
B11: YKL117W (protein, UniProt P28707 2-216, looked up)
Co-chaperone protein SBA1: SDKVINPQVAWAQRSSTTDPERNYVLITVSIADCDAPELTIKPSYIELKAQSKPHVGDENVHHYQLHIDLYKEIIPEKTMHKVANGQHYFLKLYKKDLESEYWPRLTKEKVKYPYIKTDFDKWVDEDEQDEVEAEGNDAAQGMDFSQMMGGAGGAGGAGGMDFSQMMGGAGGAGSPDMAQLQQLLAQSGGNLDMGDFKENDEEDEEEEIEPEVKA
B12: YNL307C (protein, UniProt P21965 2-375, looked up)
Protein kinase MCK1: STEEQNGVPLQRGSEFIADDVTSNKSNNTRRMLVKEYRKIGRGAFGTVVQAYLTQDKKNWLGPFAIKKVPAHTEYKSRELQILRIADHPNIVKLQYFFTHLSPQDNKVYQHLAMECLPETLQIEINRYVTNKLEMPLKHIRLYTYQIARGMLYLHGLGVCHRDIKPSNVLVDPETGVLKICDFGSAKKLEHNQPSISYICSRFYRAPELIIGCTQYTTQIDIWGLGCVMGEMLIGKAIFQGQEPLLQLREIAKLLGPPDKRFIFFSNPAYDGPLFSKPLFSGSSQQRFEKYFGHSGPDGIDLLMKILVYEPQQRLSPRRILAHQFFNELRNDDTFLPRGFTEPIKLPNLFDFNDFELQILGEFADKIKPTKVAE

system: ABP1; experiment: DHFR-PCA on solid medium, bait ABP1 (Fig. 1B); assay type: cell-based, Saccharomyces cerevisiae; design: key: 0: SH3-independent; 1: SH3-dependent PPIs; 2: SH3-inhibited PPIs; settings: bait ABP1, label = prey
Source text: Supplement 41467_2021_21873_MOESM8_ESM.xlsx, sheet "Fig1B" | column: medsize; medrep; Ratio; Score

Molecule	Score
B1	0
B2	0
B3	1
B4	0
B5	2
B6	1
B7	0
B8	1
B9	1
B10	2
B11	2
B12	0
